From publication PMC13198257, “An aerosolized dual-action autotaxin inhibitor-PPARγ agonist for the treatment of pulmonary fibrosis” (Cell Reports Medicine, 2026)

Tested on: lung gene expression
Assay: RNA sequencing of lung tissue (BLM/EL244 vs BLM)
Type: in vivo, mouse
Protocol: RNA quality was assessed using an Agilent TapeStation 4150 with the High Sensitivity […] ScreenTape (Agilent), according to the manufacturer’s protocols. For library preparation, the QuantSeq 3’mRNA-Seq Library Prep Kit (Lexogen) was used according to manufacturer’s instructions. Briefly, 500 ng of RNA from each sample was used for first-strand synthesis, followed by RNA template removal, and second-strand synthesis initiated by random primers. In-line barcodes were introduced at this step, and this was followed by magnetic bead-based purification. The resulting libraries were amplified for 15 cycles and re-purified, with quantity and quality assessed on a Qubit 4 Fluorometer with the Invitrogen Qubit dsDNA HS Assay and an Agilent Tapestation 4150 with the High Sensitivity D1000 assay kit, respectively. The quantified libraries were pooled equimolarly; 50ng of total library mix was used for Adapter Conversion PCR Amplification using the Universal Library Conversion Kit (App-A), Version: V1.0 (MGI Tech Co., Ltd.), according to the manufacturer’s instructions.
The quantity and quality of the purified adapter conversion PCR (AC-PCR) product were evaluated on a Qubit 4 Fluorometer with the Invitrogen Qubit dsDNA HS Assay and on an Agilent Tapestation 4150 with the High Sensitivity D1000 assay kit, respectively. This was followed by DNA denaturation, Single-Strand Circularisation, Enzymatic Digestion, Enzymatic Digestion Product Cleanup and Quality Control steps on 1 pmol of AC-PCR product, according to the Universal Library Conversion Kit (App-A) User Manual (Version: A3). […]
Alignment of the FASTQ files was performed against the mouse genome build mm10 using a custom Bash script.[143] Read counting on the 3′ UTRs and differential expression analysis were conducted using the metaseqR2 bioconductor package.[144] […]

O=C1NC(=O)C(Cc2ccc(OCCC3CCN(C(=O)OCc4cc(Cl)cc(Cl)c4)CC3)cc2)S1 (stereo not drawn) [EL244, 3,5-dichlorobenzyl 4-(2-(4-((2,4-dioxothiazolidin-5-yl)methyl)phenoxy)ethyl)piperidine-1-carboxylate]
BLM-induced DEGs suppressed by treatment (Q3): 363 DEGs | EL244-deregulated DEGs that are a subset of BLM-induced DEGs: 646 DEGs | Number of deregulated genes versus BLM-treated mice (inhaled EL244): 741 genes
